The subject of one test is MDA-MB-468 cells. In words: Cell killing (MTS cell viability) assay. It counts as cell-based, human. Particulars: +1388 nM Cetuximab-SO1861 (fixed).
For another test, the system named is A431 cells. The experiment in a line: Cell killing (MTS cell viability) assay. Format: cell-based, human.
The subject of another test is A2058 cells. The experiment in a line: Cell killing (MTS cell viability) assay. It counts as cell-based, human. The following applies: +1500 nM SO1861 (unconjugated).
Another test relates to SK-BR-3 cells. The experiment in a line: Cell killing (MTS cell viability) assay. Format: cell-based, human.
The next test deals with HeLa cells. In words: Cell killing (MTS cell viability) assay. It counts as cell-based, human. The following applies: +300 nM Trastuzumab-SO1861 (fixed, Table A7).
For another test, the system named is JIMT-1 cells. The experiment in a line: Cell killing (MTS cell viability) assay. Format: cell-based, human.
Another test has as its system tumor. The experiment in a line: In vivo mouse tumor models, ADC with free saponin. Particulars: free saponin given separately, various routes, time points and doses.
Where [1] appears, read: +[…] trastuzumab-(Cys-L-SO1861)^4 (fixed).

Here are results for three substances from US20230302140A1, “CONJUGATE OF A SINGLE DOMAIN ANTIBODY, A SAPONIN AND AN EFFECTOR MOLECULE, PHARMACEUTICAL COMPOSITION COMPRISING THE SAME, THERAPEUTIC USE OF SAID PHARMACEUTICAL COMPOSITION” (SAPREME TECHNOLOGIES B.V., priority 2020, published 2023).

pIC50: −log10 of the molar value.

Usually pIC50 stands for −log10 of the IC50, conventionally taken in molar units. On to “Trastuzumab-Dianthin: trastuzumab-protein toxin conjugate, DAR 1.0”, for which the pIC50 with MDA-MB-468 cells is 9.30; with A431 cells (+1388 nM Cetuximab-SO1861 (fixed)) it was 10.52; in the test on A431 cells (+1500 nM SO1861 (unconjugated)), 10.22; in the test on A2058 cells, 11.30.

For the substance “cetuximab-saporin: monoclonal antibody recognizing and binding EGFR, conjugated to the protein toxin saporin”, the negative-log IC50 (pIC50) in the test with SK-BR-3 cells (+[…] trastuzumab (fixed)) was less than 8.40; with SK-BR-3 cells (setting [1]), 12.00; with SK-BR-3 cells (toxin or toxin conjugate titrated alone (no SO1861)) it was less than 8.40; with HeLa cells, 10.30; with JIMT-1 cells (+300 nM Trastuzumab-SO1861 (fixed, Table A7)) it was 10.05; in the test on JIMT-1 cells (setting [1]), 10.10.

“cetuximabdianthin: ADC tested in in vivo tumor models with free SO1861”: the “anti-tumor activity of ADC administered with free SO1861” value in the test on tumor is given as “did not result in any desired anti-tumor activity”.
